PubChem BioAssay AID624099 | ICCB-Longwood, 2012
This is an unselected part of about 21,000 reagents tested. 497 of all reagents (2.4%) count as active. 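Higher z means weaker E2 silencing; only reporter increases were scored, and knock-downs that hurt cell survival may mask genuine repressor factors.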 Unmarked entries are inactive. Reagents against one gene are numbered here.

- Screen: 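Human genes that papillomavirus E2 requires to repress the HPV18 LCR promoter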 (primary screen)
- Cell system: human C33A cervical carcinoma cells (HPV-negative) stably expressing BPV1 E2 and an HPV18 LCR luciferase reporter
- Reagent: siRNA pool against human genes, 40 nM
- Duration: 72 h
- Detection: 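HPV18 LCR reporter light per well, converted to plate-wise z-scores that exclude control wells, and averaged over triplicate plates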
- Reading the numbers: mean z-score and z-score: higher = stronger reporter signal, weaker E2 silencing
- Rule for the call: 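Mean z ≥ 2 together with z ≥ 2 in two or more of the three replicates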

no.	gene knocked down	reagent	mean z-score	z-score, replicate A	z-score, replicate B	z-score, replicate C
1	TK2 (thymidine kinase 2)	1	1.3	1.33	1.27	1.28
2	NXF4 (nuclear RNA export factor 4 (pseudogene))	1	0.38	0.82	-0.11	0.43
3	MUC20 (mucin 20, cell surface associated)	1	-0.34	-0.08	-0.7	-0.24
4	MOCS2 (molybdenum cofactor synthesis 2)	1	0.23	0.02	0.21	0.44
5	HPD (4-hydroxyphenylpyruvate dioxygenase)	1	-0.91	-0.89	-1.05	-0.79
6	TBKBP1 (TBK1 binding protein 1)	1	0.09	-0.47	-0.44	1.18
7	ATP5F1C (ATP synthase F1 subunit gamma)	1	-0.38	-0.51	-0.34	-0.29
8	RNF6 (ring finger protein 6)	1	-0.77	-0.77	-0.98	-0.57
9	LOC387917 (retired record)	1	0.26	0.36	0.31	0.12
10	MUL1 (mitochondrial E3 ubiquitin protein ligase 1)	1	-0.36	-0.84	-0.43	0.17
11	TMEM88 (transmembrane protein 88)	1	-1.05	-0.93	-1.11	-1.12
12	SLC35E4	1	0.07	0.22	0	0
13	IRAK4 (interleukin 1 receptor associated kinase 4)	1	0.82	0.79	0.97	0.71
14	RNF223 (ring finger protein 223)	1	0.16	0.2	0.69	-0.42
15	ZC3H11D (zinc finger CCCH-type containing 11D)	1	0.76	0.45	1.19	0.65
16	STAC (SH3 and cysteine rich domain)	1	1.31	1.18	1.27	1.48
17	SERPINB2 (serpin family B member 2)	1	-0.07	0.02	-0.31	0.08
18	OAZ2 (ornithine decarboxylase antizyme 2)	1	-0.78	-0.61	-0.92	-0.8
19	ASB16-AS1 (ASB16 antisense RNA 1)	1	0.58	0.57	0.64	0.52
20	TTLL9 (tubulin tyrosine ligase like 9)	1	-0.11	0.2	-0.4	-0.13
21	GAPT (GRB2 binding adaptor protein, transmembrane)	1	0.74	0.28	1.14	0.8
22	MAP3K5 (mitogen-activated protein kinase kinase kinase 5)	1	0.18	0.25	0.02	0.26
23	PCSK4 (proprotein convertase subtilisin/kexin type 4)	1	-0.34	-0.6	-0.45	0.04
24	LOC390880 (retired record)	1	0.66	0.51	0.72	0.75
25	RCC2 (regulator of chromosome condensation 2)	1	-0.78	-0.69	-0.7	-0.95
26	NSD3 (nuclear receptor binding SET domain protein 3)	1	1.31	1.05	1.3	1.59
27	LOC402578 (retired record)	1	-0.04	-0.19	0.17	-0.11
28	ASTL (astacin like metalloendopeptidase)	1	0.68	0.67	0.34	1.02
29	ITGB3BP (integrin subunit beta 3 binding protein)	1	0.31	0.38	0.34	0.2
30	RFESD (Rieske Fe-S domain containing)	1	-1.21	-1.14	-1.24	-1.24
31	LOC200226 (retired record)	1	0.72	0.43	0.89	0.85
32	LRRK1 (leucine rich repeat kinase 1)	1	-0.07	-0.09	-0.18	0.05
33	TOX (thymocyte selection associated high mobility group box)	1	-1.41	-1.46	-1.16	-1.61
34	LOC400807 (retired record)	1	1	0.69	0.73	1.59
35	FAM21D (retired record)	1	0.33	0.03	0.19	0.77
36	GAGE6 (G antigen 6)	1	-1.35	-1.51	-1.17	-1.38
37	LOC388169 (retired record)	1	1.29	1.51	1.14	1.21
38	FLCN (folliculin)	1	-0.22	0	-0.32	-0.34
39	ARHGAP8 (Rho GTPase activating protein 8)	1	-0.04	-0.07	-0.14	0.08
40	ANXA2R-AS1 (ANXA2R antisense RNA 1)	1	0.99	1.88	0.57	0.51
41	LOC100128988	1	-0.84	-0.62	-1.17	-0.75
42	H2AP (H2A.P histone)	1	0.25	0.37	0.06	0.32
43	PRDM12 (PR/SET domain 12)	1	-0.82	-1.09	-0.85	-0.52
44	ZNF706 (zinc finger protein 706)	1	0.42	-0.08	0.81	0.53
45	MAN1A2 (mannosidase alpha class 1A member 2)	1	-0.44	-0.41	-0.45	-0.45
46	LINC02003 (long independently transcribed non-coding RNA 2003)	1	-1.31	-0.48	-1.75	-1.7
47	DUSP16 (dual specificity phosphatase 16)	1	0.3	0.41	0.2	0.31
48	SPATA17 (spermatogenesis associated 17)	1	0.92	0.71	1.36	0.69
49	KLF1 (KLF transcription factor 1)	1	-1.25	-1.18	-1.2	-1.38
50	EIF4E1B (eukaryotic translation initiation factor 4E family member 1B)	1	-0.4	-0.77	-0.03	-0.39
51	TMEM51-AS1 (TMEM51 antisense RNA 1)	1	0.71	1.04	0.45	0.63
52	KDM7A (lysine demethylase 7A)	1	0.57	0.65	0.2	0.85
53	KDM7A (lysine demethylase 7A)	2	-0.04	0.13	-0.35	0.09
54	LOC387805 (retired record)	1	-1.29	-1.23	-1.51	-1.12
55	DNAH11 (dynein axonemal heavy chain 11)	1	0.48	0.77	0.17	0.49
56	ACIN1 (apoptotic chromatin condensation inducer 1)	1	-1.48	-0.96	-1.65	-1.81
57	RASA4 (RAS p21 protein activator 4)	1	0.68	0.76	0.67	0.62
